A mixed list of measured activities; the numbers were collected in NIAID ChemDB.

All rows: growth or infection tests; organism: HIV-1; cells: MT-2; read-out: EC50

Neighbouring rows are from separate reports. ECn is the concentration giving n% inhibition of infection, replication or growth. Blank or dashed fields: not listed here.

compound | strain | mutations | read by | setting | result
Nc1nc(NC2CC2)c2ncn([C@H]3C=C[C@@H](CO)C3)c2n1 | Site-directed mutant | RT-L74V K103N | cytopathic effect / XTT |  | 7.75 µM
Nc1ccc(C[C@@H]2[C@H](O)[C@@H](O)[C@@H](Cc3ccc(N)cc3)N(Cc3cccc(C(=O)Nc4nc5ccccc5[nH]4)c3)C(=O)N2Cc2cccc(C(=O)Nc3nc4ccccc4[nH]3)c2)cc1 | RF | PR-I84V |  | 3 d | <0.023 µM
CCN(c1nc(F)ccc1NC(C)(C)C)C1CCN(C(=O)c2cc3cc(NC(=O)N4CCN(C)CC4)ccc3[nH]2)CC1 | IIIB |  | ATP |  | 0.0082 µM
O=C1N(Cc2ccc3[nH]c(=S)oc3c2)[C@H](Cc2ccccc2)[C@H](O)[C@@H](O)[C@@H](Cc2ccccc2)N1Cc1ccc2[nH]c(=S)oc2c1 | RF |  |  |  | <5.1 µM
COC(=O)N[C@H](C(=O)N[C@@H](Cc1ccccc1)[C@@H](O)CN(Cc1ccc(-c2ccccn2)cc1)NC(=O)[C@@H](NC(=O)OC)C(C)(C)C)C(C)(C)C | LAI |  | RT activity |  | 0.0007 µM
CC[C@@H]1[C@H](O)[C@@H](O)[C@@H](CC)N(Cc2cccc(C(=O)Nc3nc4ccccc4[nH]3)c2)C(=O)N1Cc1cccc(C(=O)Nc2nc3ccccc3[nH]2)c1 | RF |  |  | 3 d | <0.57 µM
Nc1nc2ccc(CN3C(=O)N(Cc4ccc5nc(N)oc5c4)[C@H](Cc4ccccc4)[C@H](O)[C@@H](O)[C@H]3Cc3ccccc3)cc2o1 | RF |  |  |  | <0.084 µM
N/C(=N/O)c1cccc(CN2C(=O)N[C@H](CCc3ccccc3)[C@@H](O)[C@H]2Cc2ccccc2)c1 | RF |  | cytopathic effect / MTT |  | <0.37 µM
Cc1ccc(S(=O)(=O)N(CC(C)C)C[C@@H](O)[C@H](Cc2ccccc2)NC(=O)O[C@H]2CO[C@H]3OCC[C@H]32)cc1 | IIIB | K112M K113E V128I | p24 / ELISA |  | 0.008 µM
Cc1cn([C@H]2C[C@H](N=[N+]=[N-])[C@@H](CO)O2)c(=O)[nH]c1=O | IIIB |  | cytopathic effect |  | 0.07 µM
C[C@@H]1O[C@H]2OCCC[C@H]2[C@H]1OC(=O)N[C@@H](Cc1ccccc1)[C@H](O)CN1C[C@H]2CCCC[C@H]2C[C@H]1C(=O)NC(C)(C)C | LAI |  | cytopathic effect / MTT |  | 0.039 µM
N/C(=N/O)c1cc(CN2C(=O)N(Cc3ccc(F)c(/C(N)=N\O)c3)[C@H](Cc3ccccc3)[C@H](O)[C@H]2CCc2ccccc2)ccc1F | RF |  | cytopathic effect / MTT |  | <0.051 µM
O=[N+]([O-])c1ccccc1S(=O)(=O)c1ccccc1 | RF |  | cytopathic effect / XTT |  | 9.28 µM
Cc1cn([C@H]2C[C@H](N=[N+]=[N-])[C@@H](CO)O2)c(=O)[nH]c1=O | Site-directed mutant | RT-L74V K103N | cytopathic effect / XTT |  | 0.6 µM
O=c1[nH]cnc2c1ncn2[C@H]1CC[C@@H](CO)O1 | IIIB |  | cytopathic effect / MTT |  | 9.1 µM
CC(C)(C)NC(=O)[C@@H]1C[C@@H]2CCCC[C@@H]2CN1C[C@@H](O)[C@H](Cc1ccccc1)NC(=O)[C@H](CC(N)=O)NC(=O)c1ccc2ccccc2n1 | LAI |  | RT activity |  | 0.005 µM
Nc1nc2c(ncn2[C@H]2CO[C@@H](CO)O2)c(=O)[nH]1 | Site-directed mutant | RT-K103N | cytopathic effect / XTT |  | 1.98 µM
Nc1nc(NC2CC2)c2ncn([C@H]3C=C[C@@H](CO)C3)c2n1 | LAI |  | RT activity |  | 0.326 µM
O=C1N(Cc2ccc3oc(=O)[nH]c3c2)[C@H](Cc2ccccc2)[C@H](O)[C@@H](O)[C@@H](Cc2ccccc2)N1Cc1ccc2oc(=O)[nH]c2c1 | RF |  |  |  | <0.579 µM
CC(C)Nc1cccnc1N1CCN(C(=O)c2cc3cc(NS(C)(=O)=O)ccc3[nH]2)CC1 | LAI |  | cytopathic effect / MTS |  | 0.025 µM
CC[C@@H]1[C@H](O)[C@@H](O)[C@@H](Cc2ccccc2)N(Cc2cccc(C(=O)Nc3nc4ccccc4[nH]3)c2)C(=O)N1Cc1cccc(C(=O)Nc2nc3ccccc3[nH]2)c1 | RF |  |  | 3 d | <0.026 µM
C[C@H](Cn1cnc2c(N)ncnc21)OCP(=O)(O)O | LAI |  | RT activity |  | 0.008 µM
COC(=O)C(=O)OC1(C(=O)O)C[C@@H](OC(=O)/C=C/c2ccc(O)c(O)c2)C(O)[C@H](OC(=O)/C=C/c2ccc(O)c(O)c2)C1 | LAI |  | cytopathic effect / neutral red |  | 7 µM
CC(C)CN(C[C@@H](O)[C@H](Cc1ccccc1)NC(=O)O[C@H]1CCOC1)S(=O)(=O)c1ccc(N)cc1 | LAI |  | RT activity |  | 0.011 µM
NC(=O)c1cc(CN2C(=O)N(Cc3ccc(F)c(C(N)=O)c3)[C@H](Cc3ccccc3)[C@H](O)[C@H]2CCc2ccccc2)ccc1F | RF |  | cytopathic effect / MTT |  | <0.49 µM
CN(C)c1ccc(C[C@@H]2[C@H](O)[C@@H](O)[C@@H](Cc3ccc(N(C)C)cc3)N(Cc3cccc(C(=O)Nc4nc5ccccc5[nH]4)c3)C(=O)N2Cc2cccc(C(=O)Nc3nc4ccccc4[nH]3)c2)cc1 | RF | PR-I84V V82F |  | 3 d | <0.022 µM
O=C1Nc2ccc(CN3C(=O)N(Cc4ccc5c(c4)C(=O)C(=O)N5)[C@H](Cc4ccccc4)[C@H](O)[C@@H](O)[C@H]3Cc3ccccc3)cc2C1=O | RF |  |  |  | <8.5 µM
CC(C)CN(C[C@@H](O)[C@H](Cc1ccccc1)NC(=O)O[C@H]1CO[C@H]2OCC[C@H]21)S(=O)(=O)c1ccc(C(N)=O)cc1 | LAI |  |  |  | 0.093 µM
[N-]=[N+]=N[C@]1(CO)O[C@@H]([n+]2ccc(N)[nH]c2=O)[C@@H](F)[C@@H]1O | NL4-3 |  | luciferase |  | 0.3 nM
Nc1nc2c(ncn2[C@H]2C=C[C@@H](CO)O2)c(=O)[nH]1 | IIIB |  | cytopathic effect / MTT |  | 6.3 µM
CC(C)(C)NC(=O)[C@@H]1CN(Cc2cccnc2)CCN1C[C@@H](O)C[C@@H](Cc1ccccc1)C(=O)N[C@H]1c2ccccc2C[C@H]1O | LAI |  | RT activity |  | 0.003 µM
Nc1ncnc2c1ncn2CCOCP(=O)(O)O | IIIB |  | cytopathic effect |  | 2.85 µM
CCOC(=O)c1c(C(C)C)c(C#N)c(=N)n2ccccc12 |  |  | cytopathic effect |  | <4 µM
CC(=O)N[C@H](C(=O)N[C@@H](Cc1ccccc1)[C@@H](O)CN(Cc1ccccc1)NC(=O)[C@@H](NC(C)=O)C(C)C)C(C)C | LAV |  | RT activity |  | <10 µM
OCCc1ccc(O)c(O)c1 | NL4-3 |  | p24 / ELISA |  | 35.05 µM
CC(C)CN(C[C@@H](O)[C@H](Cc1ccccc1)NC(=O)O[C@H]1CCOC1)S(=O)(=O)c1ccc(N)cc1 | LAI |  | cytopathic effect / MTT |  | 0.036 µM
O=C1N(Cc2ccc3[nH]ncc3c2)[C@H](Cc2ccccc2)[C@H](O)[C@@H](O)[C@@H](Cc2ccccc2)N1Cc1ccc2[nH]ncc2c1 | RF |  |  |  | <0.008 µM
C[C@H]1O[C@@H]2OCCC[C@@H]2[C@@H]1OC(=O)N[C@@H](Cc1ccccc1)[C@H](O)CN1C[C@H]2CCCC[C@H]2C[C@H]1C(=O)NC(C)(C)C | LAI |  | cytopathic effect / MTT |  | 0.005 µM
CC(C)=CCN1Cc2cccc3[nH]c(=S)n(c23)C[C@@H]1C | IIIB | RT-R83K L100I | cytopathic effect |  | >30 µM

A second listing of 2 rows from above:

compound,strain,mutations,read by,setting,result
O=C1N(Cc2ccc3[nH]ncc3c2)[C@H](Cc2ccccc2)[C@H](O)[C@@H](O)[C@@H](Cc2ccccc2)N1Cc1ccc2[nH]ncc2c1,RF,,,,<0.008 µM
C[C@@H]1O[C@H]2OCCC[C@H]2[C@H]1OC(=O)N[C@@H](Cc1ccccc1)[C@H](O)CN1C[C@H]2CCCC[C@H]2C[C@H]1C(=O)NC(C)(C)C,LAI,,cytopathic effect / MTT,,0.039 µM